Patent publication US20050049242A1 (priority 2000, published 2005)

Tested on: MT-2 cells
Conditions: 48 hours

Di-3,4-dihydrodihydroxybenzylidine succinic acid [Compound 38]
LD5 (5% lethal dose, concentration at which cell growth is inhibited by 5%): 69 µM
